Anti-infective test results gathered from many reports (values: NIAID ChemDB through PubChem).

Shared fields: tests on isolated targets

Neighbouring rows are from separate reports. ICn: concentration for n% inhibition. Percent inhibition refers to the dose given; in toxicity tests it is the harm to the cells. An empty or dashed field is not shown. Two numbers with a dash give a range or band.

{"compound": "CC(C)CC(=O)N(Cc1ccc([N+](=O)[O-])cc1)c1cc(-c2ccccc2)sc1C(=O)O", "protein": "NS3 ATPase", "read-out": "IC50", "species": "Hepatitis C virus", "value": "<5 µM"}
{"compound": "Cc1ccc(C)c(S(=O)(=O)NN2C(=O)/C(=C\\c3ccc(Cl)c(Cl)c3)SC2=S)c1", "protein": "NS5B polymerase", "read-out": "IC50", "species": "Hepatitis C virus", "value": "≤30 µM"}
{"compound": "CN1CCN(c2cc(C(=O)Nc3ccc4cn[nH]c4c3)c(F)cc2F)CC1", "protein": "Reverse transcriptase", "read-out": "inhibition", "dose": "1 µg/mL", "species": "Hepatitis B virus", "value": "53%"}
{"compound": "NN1C(=O)/C(=C\\c2ccc(-c3cccc(Cl)c3)o2)SC1=S", "protein": "NS5B polymerase", "read-out": "IC50", "species": "Hepatitis C virus", "value": "≤30 µM"}
{"compound": "Cc1ccccc1S(=O)(=O)Nc1cc(-c2ccccc2)sc1C(=O)O", "protein": "NS3 ATPase", "read-out": "IC50", "species": "Hepatitis C virus", "value": ">20 µM"}
{"compound": "O=c1c(O)c(-c2ccc(O)c(O)c2)oc2c(O)c(O)cc(O)c12", "protein": "Replicase complex", "read by": "SYBR Green", "read-out": "inhibition", "dose": "20 µM", "strain or isolate": "J4", "species": "Hepatitis C virus", "value": "74.6%"}
{"compound": "CC(C)(C)OC(=O)N1CCC(N(C(=O)c2ccc(Cl)cc2Cl)c2cc(-c3ccccc3)sc2C(=O)O)CC1", "protein": "NS3 ATPase", "read-out": "IC50", "species": "Hepatitis C virus", "value": "<5 µM"}
{"compound": "O=C(Nc1cscc1-c1nc(C(=O)O)c(O)c(=O)[nH]1)OCc1ccccc1F", "protein": "HCV polymerase", "read-out": "IC50", "species": "Hepatitis C virus", "value": "<25 µM"}
{"compound": "O=C1/C(=C\\c2ccc(Cl)cc2)SC(=S)N1NS(=O)(=O)c1ccccc1", "protein": "NS5B polymerase", "read-out": "IC50", "species": "Hepatitis C virus", "value": "≤30 µM"}
{"compound": "CN1CCN(c2cc(C(=O)Nc3ccc4[nH]ncc4c3)c(F)cc2F)CC1", "protein": "Nonstructural protein 5B", "read-out": "inhibition", "dose": "10 µg/mL", "species": "Hepatitis C virus", "value": "36%"}
{"compound": "Cc1ccccc1S(=O)(=O)Nc1cc(-c2ccc(Cl)s2)sc1C(=O)O", "protein": "NS3 ATPase", "read-out": "IC50", "species": "Hepatitis C virus", "value": "<5 µM"}
{"compound": "NC(=O)c1cccc(S(=O)(=O)NC(=O)Nc2cscc2-c2nc(C(=O)O)c(O)c(=O)[nH]2)c1", "protein": "HCV polymerase", "read-out": "IC50", "species": "Hepatitis C virus", "value": "<25 µM"}
{"compound": "O=C(O)[C@H](Cc1ccccc1)N(Cc1cccc(Br)c1)C(=O)c1ccccc1Cl", "protein": "RNA-dependent RNA polymerase", "read-out": "IC50", "species": "Hepatitis C virus", "value": ">20 µM"}
{"compound": "COc1cc(-c2oc3cc(O)cc(O)c3c(=O)c2O)ccc1O", "protein": "Replicase complex", "read by": "SYBR Green", "read-out": "inhibition", "dose": "20 µM", "strain or isolate": "J4", "species": "Hepatitis C virus", "value": "77.6%"}
{"compound": "COc1cccc(COc2cccc(-c3nc(C(=O)O)c(O)c(=O)[nH]3)c2)c1", "protein": "HCV polymerase", "read-out": "IC50", "species": "Hepatitis C virus", "value": "<100 µM"}
{"compound": "O=C(Nc1ccc2[nH]ncc2c1)c1cc(N2CCC(O)CC2)c(F)cc1F", "protein": "Reverse transcriptase", "read-out": "inhibition", "dose": "0.1 µg/mL", "species": "Hepatitis B virus", "value": "52%"}
{"compound": "O=C(O)c1sc(-c2ccccc2)cc1NS(=O)(=O)c1ccccc1C(F)(F)F", "protein": "NS3 ATPase", "read-out": "IC50", "species": "Hepatitis C virus", "value": ">20 µM"}
{"compound": "O=C(O)c1nc(-c2sccc2NC(=O)N2CCCCC2)[nH]c(=O)c1O", "protein": "HCV polymerase", "read-out": "IC50", "species": "Hepatitis C virus", "value": "<25 µM"}
{"compound": "Cc1ccc(C(=O)N(Cc2cccc(Br)c2)[C@@H](Cc2ccccc2)C(=O)O)c(C)c1", "protein": "RNA-dependent RNA polymerase", "read-out": "IC50", "species": "Hepatitis C virus", "value": "<5 µM"}
{"compound": "O=C(Nc1cccc(-c2nc(C(=O)O)c(O)c(=O)[nH]2)c1)Nc1ccc(F)c([N+](=O)[O-])c1", "protein": "HCV polymerase", "read-out": "IC50", "species": "Hepatitis C virus", "value": "<100 µM"}
{"compound": "O=C(Nc1ccc2[nH]ncc2c1)c1cc(N2CCNCC2)c(F)cc1F", "protein": "Reverse transcriptase", "read-out": "inhibition", "dose": "0.01 µg/mL", "species": "Hepatitis B virus", "value": "30%"}
{"compound": "CN(C)c1ccc(/C=C2/SC(=S)N(N)C2=O)cc1", "protein": "NS5B polymerase", "read-out": "IC50", "species": "Hepatitis C virus", "value": ">30 µM"}
{"compound": "CC(COCc1ccccc1)N(C(=O)c1ccc(Cl)cc1Cl)c1cc(-c2ccccc2)sc1C(=O)O", "protein": "NS3 ATPase", "read-out": "IC50", "species": "Hepatitis C virus", "value": "<5 µM"}
{"compound": "O=C1CC(c2ccccc2)Oc2ccc(O)cc21", "protein": "Replicase complex", "read by": "SYBR Green", "read-out": "inhibition", "dose": "20 µM", "strain or isolate": "J4", "species": "Hepatitis C virus", "value": "4.1%"}
{"compound": "CN1CCNCCC1c1cc(C(=O)Nc2ccc3cn[nH]c3c2)c(F)cc1F", "protein": "Reverse transcriptase", "read-out": "inhibition", "dose": "1 µg/mL", "species": "Hepatitis B virus", "value": "53%"}
{"compound": "C[C@@H](c1ccccc1)N(C(=O)c1ccc(Cl)cc1Cl)c1cc(-c2ccccc2)sc1C(=O)O", "protein": "NS3 ATPase", "read-out": "IC50", "species": "Hepatitis C virus", "value": "<5 µM"}
{"compound": "Cc1cc(Cl)ccc1C(=O)N(Cc1cccc(-c2cc3ccccc3o2)c1)C(Cc1ccccc1)C(=O)O", "protein": "RNA-dependent RNA polymerase", "read-out": "IC50", "species": "Hepatitis C virus", "value": "<5 µM"}
{"compound": "O=C(Nc1ccc2[nH]ncc2c1)c1cc(C2CCNCCN2)c(F)cc1F", "protein": "Reverse transcriptase", "read-out": "inhibition", "dose": "0.1 µg/mL", "species": "Hepatitis B virus", "value": "36%"}
{"compound": "O=C1NC(=S)S/C1=C\\c1ccc(Cl)cc1", "protein": "NS5B polymerase", "read-out": "IC50", "species": "Hepatitis C virus", "value": ">30 µM"}
{"compound": "O=C(c1ccc(CN(c2ccc(Cl)cc2Cl)[C@@H](Cc2ccccc2)C(=O)O)cc1)c1cccc(Cl)c1", "protein": "RNA-dependent RNA polymerase", "read-out": "IC50", "species": "Hepatitis C virus", "value": "<5 µM"}
{"compound": "O=C(O)c1nc(-c2ccc([N+](=O)[O-])s2)[nH]c(=O)c1O", "protein": "HCV polymerase", "read-out": "IC50", "species": "Hepatitis C virus", "value": "<25 µM"}
{"compound": "O=C(Nc1ccc2[nH]ncc2c1)c1cc(N2CCN(CCO)CC2)c(F)cc1F", "protein": "Reverse transcriptase", "read-out": "inhibition", "dose": "0.01 µg/mL", "species": "Hepatitis B virus", "value": "20%"}
{"compound": "O=C(O)c1nc(-c2cccc(OCc3ccccc3)c2)[nH]c(=O)c1O", "protein": "HCV polymerase", "read-out": "IC50", "species": "Hepatitis C virus", "value": "<100 µM"}
{"compound": "O=C(O)c1sc(-c2ccccc2)cc1N(CC1CCN(C(=O)OCc2ccccc2)CC1)C(=O)c1ccc(Cl)cc1Cl", "protein": "NS3 ATPase", "read-out": "IC50", "species": "Hepatitis C virus", "value": "<5 µM"}
{"compound": "Cc1nc(-c2nc(C(=O)O)c(O)c(=O)[nH]2)cs1", "protein": "HCV polymerase", "read-out": "IC50", "species": "Hepatitis C virus", "value": "<100 µM"}
{"compound": "O=c1c(O)c(-c2ccc(O)cc2)oc2cc(O)cc(O)c12", "protein": "Replicase complex", "read by": "SYBR Green", "read-out": "inhibition", "dose": "20 µM", "strain or isolate": "J4", "species": "Hepatitis C virus", "value": "74.7%"}
{"compound": "C=Cc1cc(NS(=O)(=O)c2ccccc2C)c(C(=O)O)s1", "protein": "NS3 ATPase", "read-out": "IC50", "species": "Hepatitis C virus", "value": "5–20 µM"}
{"compound": "O=C(O)c1nc(-c2ccco2)[nH]c(=O)c1O", "protein": "HCV polymerase", "read-out": "IC50", "species": "Hepatitis C virus", "value": "<100 µM"}

The last 4 rows once more:

compound | protein | read by | read-out | dose | strain or isolate | species | value
Cc1nc(-c2nc(C(=O)O)c(O)c(=O)[nH]2)cs1 | HCV polymerase |  | IC50 |  |  | Hepatitis C virus | <100 µM
O=c1c(O)c(-c2ccc(O)cc2)oc2cc(O)cc(O)c12 | Replicase complex | SYBR Green | inhibition | 20 µM | J4 | Hepatitis C virus | 74.7%
C=Cc1cc(NS(=O)(=O)c2ccccc2C)c(C(=O)O)s1 | NS3 ATPase |  | IC50 |  |  | Hepatitis C virus | 5–20 µM
O=C(O)c1nc(-c2ccco2)[nH]c(=O)c1O | HCV polymerase |  | IC50 |  |  | Hepatitis C virus | <100 µM